Test results: article PMC4118376 (Sensors (Basel, Switzerland), 2014)

biological target: ricin (Ricinus communis (; implied …, UniProt P02879)

Binder	binding result
sdAb H9-B11 (VHH, source: E. coli, periplasm, purified (IMAC, size exclusion chromatography)) VHH: DVQLQASGGGLVQVGGSLRLSCAASGSTFRIGYMGWYRQAPGKPRELVARISSGGTTDYLDFVKDRFTISRDNAKNTVYLQMSSLKPEDTAVYYCNVVNYRANEYWGQGTQVTVSS	no binding
sdAb H9-D7 (VHH, source: E. coli Rosetta (DE3), periplasm, purified (IMAC, size exclusion chromatography)) VHH: DVQLQASGGGLVQVGGSLRLSCAASGSTFRIGYMSWHRQAPGKSRELVARISSGGTTDYLDSVKDRFTISRDNTKNTVYLQMNSLEPEDTAVYYCNVVDYRANEYWGQGTQVAVSS	no binding
sdAb A10 (VHH, source: E. coli Rosetta (DE3), periplasm, purified (IMAC, size exclusion chromatography)) VHH: EVQLQASGGGLVRAGGTLRLTCDATTPTFGSYAMGWFRQAPGKEREFVSAISWSGGDTYADSVKGRFTISRDNTRNRVYLQMNDLEPDDTAIYTCARTTARYYISKDAKDYDYWGQGTQVTVSS	no binding
sdAb B1 (VHH, source: E. coli Rosetta (DE3), periplasm, purified (IMAC, size exclusion chromatography)) VHH: EVQLQASGGGLVQAGGSLRLTCAVSGPTFGSYALGWFRQAPGKEREFVAAVSWSGGDTYADTAKGRFIISRDNAKNTVYLQMNNLEPEDTAVYSCARMQDRYYISKDAKDYGYWGQGTQVIVSS	no binding
sdAb H9 (VHH, source: E. coli Rosetta (DE3), periplasm, purified (IMAC, size exclusion chromatography)) VHH: EVQLQASGGGLVQAGGSLRLTCAVSGPTFGSYALGWFRQAPGKEREFVAAVSWSGGDTYADSVKGRFIISRDNAKNTVYLQMNNLEPEDTAVYSCARMQDRYYISKDAKDYGYWGQETQVTVSS	no binding
sdAb H9-H11 (VHH, source: E. coli, periplasm, purified (IMAC, size exclusion chromatography)) VHH: DVQLQASGGGLVQPGGSLRLSCAASESAVRIGFMGWHRQAPGNQRERVAQISSTGLPTYADAVKGRFTISRDNTKNTVYLQMNSLNADDTAVYFCNARLYDGTSVWGQGTQVTVSS	no binding
sdAb S222-A2 (VHH, source: E. coli, periplasm, purified (IMAC, size exclusion chromatography)) VHH: DVQLQASGGGLVEPGGSLRLSCAASGSAVSIGFMGWHRQAPGKQRERVAQISSTGIPNYADTVKGRFTISRDNTKNTMYLQMNSLNADDTAVYFCNARLYDGTSAWGQGTQVTVSS	no binding
sdAb H9-A1 (VHH, source: E. coli Rosetta (DE3), periplasm, purified (IMAC, size exclusion chromatography)) VHH: EVQLQASGGGLVQPGGSLRLSCAASGSAVSIGFMAWYRQAPGKQRELVARISSSGLPDYADTVKGRFTISRDNTRKTVSLQMNSLNPDDTAVYYCNARLYDGSSAWGQGTQVTVSS	no binding
sdAb D9 (VHH, source: E. coli Rosetta (DE3), periplasm, purified (IMAC, size exclusion chromatography)) VHH: EVQLQASGGGLAQAGDSLRLSCAASIRTFGSYAMGWFRQAPGKEREFVAAISWSGGDTYADSAKGRFTISRDNAKNMMYLQMNSLAPEDTAVYFCAIVEAKYYISKDARDYGYWGQGTQVFVSS	no binding
sdAb F1 (VHH, source: E. coli Rosetta (DE3), periplasm, purified (IMAC, size exclusion chromatography)) VHH: DVQLQASGGGLVQAGGSLRLTCAASLHTFGSYAMGWFRQAPGKEREFVAAISWSGGDTYSDSVKGRFTISRDNAKNTVYLQMNSLEPEDTAVYSCAAVEARYYISTDAKDYGYWGQGTQVTVSS	no binding
sdAb E2 (VHH, source: E. coli Rosetta (DE3), periplasm, purified (IMAC, size exclusion chromatography)) VHH: EVQLQASGGGLVQAGGSLRLTCAASGRTFGSYAMGWFRQAPGKEREFVAAISWSGGDTYADSVKGRFTISRDNAKNTVYLQMNSLAPEDTAVYSCAAVGARYYISKDAKDYGYWGQGTQVTVSS	no binding
sdAb H12 (VHH, source: E. coli Rosetta (DE3), periplasm, purified (IMAC, size exclusion chromatography)) VHH: EVQLQASGGGLVLTGGSLRLSCAASGRNFSNYAMAWFRQAPGKEREFVGTISWYTNTNYANSVKGRFSISRDNAKNTVYLQMSSLKPEDTAVYYCAAAPAMYYNPYTRESEYGYWGQGTQVTVSS	no binding
sdAb E9 (VHH, source: E. coli Rosetta (DE3), periplasm, purified (IMAC, size exclusion chromatography)) VHH: EVQLQASGGGLVQAGGSLRLSCAASGRDFSDYAMAWFRQAPGKEREFVGTISWYTNTNYADSVKGRFSISRDNAKNTVYLQMSSLKPEDTAVYYCAAAPARYYNPYKRESEYGYWGQGTQVTVSS	no binding
